Experimental data published in PubChem BioAssay AID624309 (Sanford-Burnham Center for Chemical Genomics, 2012).
Only a part is listed here, and it is no random draw. The source made the active and inactive calls. Rule as the data show it: active = inhibition mostly above about 42% (no sharp cut-off); inactive = mostly below about 42%.

These molecules were tested on Nicotinate mononucleotide adenylyltransferase NadD (Staphylococcus aureus N315) (assay: inhibitors of S. aureus NadD, confirmation, biochemical, colorimetric, single concentration (AID 624309)). Conditions: purified S. aureus NadD, colorimetric enzyme assay; at 20 µM; active compounds read high.

| Structure (SMILES) | inhibition |
| --- | --- |
| CCCCn1nnnc1C(c1cc2ccccc2o1)N1CCC(n2c(=O)[nH]c3ccccc32)CC1 (configuration not stated) | inactive: 19.4% |
| O=c1[nH]c2ccccc2n1C1CCN(C(c2cccc3ccccc23)c2nnnn2C2CCCC2)CC1 (configuration not stated) | inactive: 25.6% |
